# How the values were obtained:
# PorX-c-His6 [1] = biological target: PorX-c-His6 (UniProt B2RJJ3); assay: DNase I footprinting; conditions: ~25 pmol DNA, 0/70/140/280 pmol protein in 100 ul, Sites I and II protected; recombinant protein; residues 1-518; protein details: C-terminal His6; label: 32P (5' end of primer 4025); probe letters rebuilt from the primers and the …
# PorX-c-His6 [2] = biological target: PorX-c-His6 (UniProt B2RJJ3); assay: EMSA; conditions: 0.5 pmol DNA, 0/50/100 pmol protein in 20 ul, poly(dI:dC), 7.5 mM MgCl2; EMSA: 20 mM HEPES-KOH pH 7.9, 0.1 M KCl, 7.5 mM MgCl2, 0.2 mM EDTA, 20% glycerol, 1 mM DTT, 0.5 mM PMSF, poly(dI:dC) 0.02 ug/ul, BSA 1.25 ug/ul, room temperature, 30 min; recombinant protein; residues 1-518; protein details: C-terminal His6; label: 32P (5' end of primer 4025); probe letters rebuilt from the primers and the …
sequence,measurement,setting,value
CACACGTTCTATATTGCGACGAAAGCGCAGTCGATCGTTCTGAATAGTGACATCGCGCATCTCCATGACGAATCTATTGAGAAGAGAATGCTCGGCACCTAAGTGTATTACTTCCATAATTATTGTTGTGAGGTAGGTTATGCAAATCTACGAACGAGATGTTCTAAATACCGATTCGCGCAAAAATACAATATCTTTGCTGCATAAGGCGTTGATCTTACACACCAAATAAAGAATTGAAGATTATTCTCTCAGATGCAATTCTTATATAATTCACGTTTTTCGTTGAGAGTCGCTCTCT (double strand) [porT promoter fragment],binding result,PorX-c-His6 [1],binds
same,binding result,PorX-c-His6 [2],binds

# Source: publication PMC8050853
